Results as given in paper PMC7112222, “Investigation of pyrimidine nucleoside analogues as chemical probes to assess compound effects on the proliferation of Trypanosoma cruzi intracellular parasites” (PLoS Neglected Tropical Diseases, 2020).

Tested on: T. cruzi intracellular amastigotes
Test: Image-based assay of the number of T. cruzi infected cells (intracellular amastigotes in 3T3 host cells)
Assay type: cell-based, Trypanosoma cruzi
Details: IC50 24 h vs 48 h
Experimental: Parasites and host cells were maintained as outlined previously. Briefly, host 3T3 fibroblasts (ATCC, CCL-92) were grown in RPMI medium (Thermo Fisher Scientific, USA) with no phenol red, supplemented with 10% FBS (Thermo Fisher Scientific, USA) and incubated at 37°C in 5% CO2. Host cells were harvested at 70% confluency and were split every 2–3 days in 175 cm^2 flasks. 3T3 cells were cultured up to passage 7 as contact inhibition was reduced or lost at higher passages. Prior to infection with T. cruzi trypomastigotes, host cells were seeded at 1.2 x 10^6 cells in 75 cm^2 or 4 x 10^5 cells in 25 cm^2 flasks and grown for 24 hours before parasite addition. […]
The activity of the nucleoside analogues against T. cruzi intracellular amastigotes following 24, 48 hours exposure and compound wash off, was determined using image-based techniques as previously described. […]
IC50 values for inhibitory activity of both the nucleoside analogues tested as DNA probes and known inhibitors tested to determine their effect on replication of T. cruzi were calculated in GraphPad Prism 5, using sigmoidal dose response with variable slope. […] The p-value for difference in the % activity at Emax concentrations for compounds with known activity (EdU identified parasites, compared to Hoechst identified parasites) against T. cruzi was determined using GraphPad Prism 5, using an unpaired student’s t-test. […]

C#Cc1cn([C@H]2C[C@H](O)[C@@H](CO)O2)c(=O)nc1N [EdC, 5-ethynyl-2′-deoxy-cytidine]
fold increase in activity against T. cruzi, 48 vs 24 hours incubation: 1.8 fold
